From paper PMC10499932, “Broadly neutralizing antibodies derived from the earliest COVID-19 convalescents protect mice from SARS-CoV-2 variants challenge” (Signal Transduction and Targeted Therapy, 2023) come the findings set out here.

The experiment addresses SARS-CoV-2 WT receptor binding domain (RBD) of Spike (SARS-CoV-2, UniProt P0DTC2).

B1: 3C4 (antibody, V domains shown)
VH: EVQLVESGGGLVQPGRSLRLSCAASGFNFDDFAMHWVRQAPGKGLEWVSGISWNSVNIGYADSVKGRFTISRDNAKNSLYLQMNSLRAEDTALYYCGKDMFPYSFYYYGMDVWGQGTTVTVSS
VL: EIVLTQSPATLSLSPGERATLSCRASQSVTSYLAWYQQKPGQAPRLLMYDASNRATGIPARFSGSGSGTDFTLTISSLEPEDFAVYYCQQRNDWPFTFGPGTKVDIK
Take B1: the binding result is listed as “binds”.
